Assay results reported in article PMC3408624 (Chemistry & biology, 2012).

Sequences of proteins named here, by UniProt entry; tags and fusion partners are left off. Residues count along the entry.
UniProt P15917, 34-809 limits assumed: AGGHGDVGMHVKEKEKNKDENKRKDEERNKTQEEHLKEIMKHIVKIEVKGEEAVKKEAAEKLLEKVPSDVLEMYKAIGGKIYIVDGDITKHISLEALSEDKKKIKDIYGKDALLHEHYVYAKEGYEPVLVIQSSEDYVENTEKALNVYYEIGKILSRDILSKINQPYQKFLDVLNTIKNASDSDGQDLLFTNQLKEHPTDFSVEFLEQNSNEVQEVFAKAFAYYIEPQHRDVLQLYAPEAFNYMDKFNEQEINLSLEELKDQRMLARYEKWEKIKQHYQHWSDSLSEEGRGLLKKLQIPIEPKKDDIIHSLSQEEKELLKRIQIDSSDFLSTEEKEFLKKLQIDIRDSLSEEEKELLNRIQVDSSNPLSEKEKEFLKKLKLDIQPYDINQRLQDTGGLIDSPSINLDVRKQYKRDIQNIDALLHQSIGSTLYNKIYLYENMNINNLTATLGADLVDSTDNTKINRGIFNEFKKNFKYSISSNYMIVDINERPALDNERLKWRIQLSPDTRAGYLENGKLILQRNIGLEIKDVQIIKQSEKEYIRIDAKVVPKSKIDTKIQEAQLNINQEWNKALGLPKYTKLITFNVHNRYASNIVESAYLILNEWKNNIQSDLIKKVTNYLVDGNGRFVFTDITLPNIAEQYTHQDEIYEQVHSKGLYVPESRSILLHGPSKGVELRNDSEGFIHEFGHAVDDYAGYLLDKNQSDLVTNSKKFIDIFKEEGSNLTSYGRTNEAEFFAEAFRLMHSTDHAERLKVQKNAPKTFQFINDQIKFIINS

Biological target: anthrax lethal factor (LF) (Bacillus anthracis, UniProt P15917)
Format: biochemical
Conditions: read-out: IC50 (µM), MKK6 cleavage

Substance: Reduced parellic acid [Compound 9]
- IC50: > 250 µM
